Publication PMC3788043 (Journal of the American Society for Mass Spectrometry, 2013)

Legend:
[1] = molecular target: urease apoprotein (UreABC)3 (Klebsiella aerogenes); experiment: pull-down
urease holoenzyme = urease holoenzyme (Klebsiella aerogenes); experiment: pull-down

B1: MBP-UreD:UreF(K165A):UreG complex (complex)
chain 1: MLPPLKKGWQATLDLRFHQAGGKTVLASAQHVGPLTVQRPFYPEEETCHLYLLHPPGGIVGGDELTISAHLAPGCHTLITMPGASKFYRSSGAQALVRQQLTLAPQATLEWLPQDAIFFPGANARLFTTFHLCASSRLLAWDLLCLGRPVIGETFSHGTLSNRLEVWVDNEPLLVERLHLQEGELSSIAERPWVGTLLCYPATDALLDGVRDALAPLGLYAGASLTDRLLTVRFLSDDNLICQRVMRDVWQFLRPHLTGKSPVLPRIWLT
chain 2: MSTAEQRLRLMQLASSNLPVGGYSWSQGLEWAVEAGWVLDVAAFERWQRRQMTEGFFTVDLPLFARLYRACEQGDIAAAQRWTAYLLACRETRELREEERNRGAAFARLLSDWQPDCPPPWRSLCQQSQLAGMAWLGVRWRIALPEMALSLGYSWIESAVMAGVALVPFGQQAAQQLILRLCDHYAAEMPRALAAPDGDIGSATPLAAIASARHETQYSRLFRS
chain 3: not shown
B1: binds [1]; binds (urease holoenzyme).
